Pooled drug test results. Numbers come from NIAID ChemDB, via PubChem.

All rows: target-level tests

Fold resistance has wild type as its base. Two numbers with a dash give a range or band. Percent inhibition refers to the dose given; in toxicity tests it is the harm to the cells. Lines come from different laboratories, so protocols vary. ICn: concentration for n% inhibition. An empty or dashed field is not shown.

structure	tested at	changes	read-out	agent	strain or isolate	target	read by	value
CC(C)(C)OC(=O)N[C@@H](Cc1ccccc1)C(=O)N[C@@H](CO)C(=O)N[C@@H](Cc1ccccc1)[C@@H](O)C(=O)NCC1CCCCC1			IC50	HIV-1		Protease		<1000 µM
O=C(Nc1cn2ccn(Cc3cccc(Cl)c3)c(=O)c2c(O)c1=O)c1ccco1			IC50	HIV-1		Integrase	ELISA	<0.01 µM
Nc1nc2c(ncn2[C@H]2CC[C@@H](COP(=O)(O)OP(=O)(O)OP(=O)(O)O)O2)c(=O)[nH]1		RT-K263V	fold resistance	HIV		Reverse transcriptase	nucleotide incorporation	1
CC1(C)CN(Cc2ccc(F)cc2)C(=O)c2c(O)c(=O)c(Br)cn21			IC50	HIV-1		Integrase	ELISA	0.1–1 µM
CC(C)(C)c1ccc(-n2nnnc2SCC(=O)Nc2ccc(C(=O)Nc3ccc(N4CCOCC4)cc3)cc2Cl)c(Cl)c1			IC50	HIV-1	WT	Reverse transcriptase	PicoGreen / fluorescence	<1 µM
CC(C)[C@H](NC(=O)[C@@H]1CCCN1C(=O)[C@H](O)[C@H](Cc1ccccc1)NC(=O)OC(C)(C)C)C(=O)NCC1CCCCC1	1000 µM		inhibition	HIV-1		Protease		52.6%
O=C(O)CNC(=O)c1cn2ccn(Cc3cccc(Cl)c3)c(=O)c2c(O)c1=O			IC50	HIV-1		Integrase	ELISA	0.01–0.1 µM
CC(C)(C)NC(=O)[C@H]1N(C(=O)[C@@H](O)[C@H](Cc2ccccc2)NC(=O)[C@H](CC(N)=O)NC(=O)COc2ccc3ccccc3n2)CSC1(C)C	0.05 µM		inhibition	HIV-1		Protease		98.2%
CN(C)C(=O)c1cn2c(c(O)c1=O)C(=O)N(Cc1cccc(Cl)c1)CC2			IC50	HIV-1		Integrase	ELISA	0.01–0.1 µM
CC(C)c1ccc(-n2nnnc2SCC(=O)Nc2ccc(C#CC(C)(C)C(=O)O)cc2Cl)c(Br)c1			IC50	HIV-1	WT	Reverse transcriptase	PicoGreen / fluorescence	<1 µM
O=c1c(-c2ccn[nH]2)cn2ccn(Cc3cccc(Cl)c3)c(=O)c2c1O			IC50	HIV-1		Integrase	ELISA	0.01–0.1 µM
CC(C)(C)c1ccc(-n2nnnc2SCC(=O)Nc2ccc(NC(=O)Cn3cnnn3)cc2Cl)c(Cl)c1			IC50	HIV-1	WT	Reverse transcriptase	PicoGreen / fluorescence	<1 µM
CC(C)(C)NC(=O)[C@H]1N(C(=O)[C@@H](O)[C@H](Cc2ccccc2)NC(=O)[C@H](CC(N)=O)NC(=O)OCc2ccccc2)CSC1(C)C	0.05 µM		inhibition	HIV-1		Protease		96.2%
Nc1ccn([C@@H]2CS[C@H](COP(=O)(O)OP(=O)(O)OP(=O)(O)O)O2)c(=O)n1		RT-L74V K103N	fold resistance	HIV		Reverse transcriptase	radiometric	1.5
CN(C)C(=O)c1cn2c(c(O)c1=O)C(=O)N(Cc1ccc(F)c(Cl)c1)CC2			IC50	HIV-1		Integrase	ELISA	0.01–0.1 µM
Cc1nnc(SCC(=O)Nc2ccc(-c3ccc(OCC(=O)O)cc3)cc2Cl)n1-c1ccc(C(C)(C)C)cc1Cl			IC50	HIV-1	WT	Reverse transcriptase	PicoGreen / fluorescence	<1 µM
O=C(Cc1ccc(F)cc1)Nc1cn2ccn(Cc3cccc(Cl)c3)c(=O)c2c(O)c1=O			IC50	HIV-1		Integrase	ELISA	<0.01 µM
CNC(=O)COC(C)(C)C#Cc1ccc(NC(=O)CSc2nnnn2-c2ccc(C(C)(C)C)cc2Cl)c(Cl)c1		RT-K103 Y181C	IC50	HIV-1		Reverse transcriptase	PicoGreen / fluorescence	<1 µM
O=C(NCc1ccc(F)cc1)c1cn2c(c(O)c1=O)C(=O)N(Cc1cccc(Cl)c1)CC2			IC50	HIV-1		Integrase	ELISA	<0.01 µM
CC(C)c1ccc(-n2nnnc2SCC(=O)Nc2ccc(-c3ccc(C(C)(C)C(=O)O)cc3)cc2Cl)c(Cl)c1		RT-K103 Y181C	IC50	HIV-1		Reverse transcriptase	PicoGreen / fluorescence	<1 µM
CS(=O)(=O)C[C@H](NC(=O)COc1cccc2ccccc12)C(=O)N[C@@H](Cc1ccccc1)[C@H](O)C(=O)N1CCC[C@H]1C(=O)Nc1cccc(O)c1	0.05 µM		inhibition	HIV-1		Protease		11.1%
CC(CC(=O)O)NC(=O)c1ccc(NC(=O)CSc2nnnn2-c2ccc(C(C)(C)C)cc2Cl)c(Cl)c1			IC50	HIV-1	WT	Reverse transcriptase	PicoGreen / fluorescence	<1 µM
CCCC[C@@H](CN[C@@H](CCC(N)=O)C(=O)N[C@@H](CCCN=C(N)N)C(N)=O)NC(=O)[C@H](CCCC)NC(=O)C(NC(=O)C(NC(C)=O)[C@@H](C)O)[C@@H](C)CC		PR-G48V	IC50	HIV		Protease	HPLC	>2.17 µM
CC(C)[C@H](NC(=O)COc1cccc2cnccc12)C(=O)N[C@@H](Cc1ccccc1)[C@H](O)C(=O)N1CSC[C@H]1C(=O)NC(C)(C)C	0.05 µM		inhibition	HIV-1		Protease		88.5%
CC(C)(C#Cc1ccc(NC(=O)CSc2nnnn2-c2ccc(C(C)(C)C)cc2Cl)c(Cl)c1)OCC(=O)N1CCOCC1		RT-K103 Y181C	IC50	HIV-1		Reverse transcriptase	PicoGreen / fluorescence	<1 µM

2 of the rows above, restated:

structure | tested at | changes | read-out | agent | strain or isolate | target | read by | value
O=C(Nc1cn2ccn(Cc3cccc(Cl)c3)c(=O)c2c(O)c1=O)c1ccco1 |  |  | IC50 | HIV-1 |  | Integrase | ELISA | <0.01 µM
CC(C)(C#Cc1ccc(NC(=O)CSc2nnnn2-c2ccc(C(C)(C)C)cc2Cl)c(Cl)c1)OCC(=O)N1CCOCC1 |  | RT-K103 Y181C | IC50 | HIV-1 |  | Reverse transcriptase | PicoGreen / fluorescence | <1 µM